US20250241301A1, “COMPOSITIONS AND METHODS FOR INHIBITING PATHOGEN GROWTH ON PLANTS AND IMPROVING CROP SAFETY” (priority 2024, published 2025)

Test system: potato tubers
Details: Trans-2-decenal 0.20 ml/kg alone or with PG; PG only […]; vapor; N = 5

| Compound | 48 h Post Treatment No. of Lesions | 96 h Post Treatment No. of Lesions | TOTAL No. of Lesions (5 tubers) |
| --- | --- | --- | --- |
| CCCCCCC/C=C/C=O [Trans-2-decenal (T2D), Trans-2-Decenal] | 11 | 12 | 23 |
| CC(O)CO (stereo not drawn) [PG, propylene glycol] | 2 | 2 | 4 |
